T/C data for 1 molecule are collected here from ChEMBL document CHEMBL1122593, “Phosphorus-nitrogen compounds. 24. Phosphoramide mustard carrier derivatives” (1984).

This assay relates to P388. The assay can be described thus: Antitumor activity against P388 Lymphocytic leukemia and treated mean survival time per control mean survival time was determined at 100 mg/kg. Particulars: Mus musculus.

In the case of `O=c1ccc2cc3ccoc3c(OP(=O)(Cl)N(CCCl)CCCl)c2o1` (stereo unspecified), the T/C – broadly, the result in the treated group divided by that in the control group, in per cent – was found to be 128%.
